Screening data, single-dose tests

The values are deposited in ChEMBL (CHEMBL3988442, “University of Dundee, Small-Polar-MMV Screening Library” (2021)).

Results are given as percent effect.
How 0% and 100% were set is not recorded. Most values in the screen are low, and negative values occur.
Many other results are left out here, so strong results are more common than in the screen.
A dash means the value is not listed here; it may have been measured.

Mtb cholesterol medium: 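Phenotypic screen: M. tuberculosis growth, cholesterol and DPPC medium, 4 days; the read-out is not stated. Compounds at 500 µM. Direction is inferred from retests: higher values go with more growth inhibition. About 18,000 compounds were tested under these conditions; 5% (about 900) showed 50% or more at least once.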
Mtb glucose medium: 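Whole-cell growth test on Mycobacterium tuberculosis, read after 3 days in glucose-containing 7H9 medium; the read-out is not stated. Compounds at 500 µM. The record gives no direction; compounds that gave an IC50 in retests scored well above the rest, so higher reads as more growth inhibition. About 18,000 compounds were tested under these conditions; 7.9% (about 1,400) showed 50% or more at least once.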

With Cc1nc(CNC(=O)c2ccccc2)no1 the screen gave Mtb cholesterol medium: -2.554%; Mtb glucose medium: 5.577%. Result for CC(=O)N1CCCN(S(=O)(=O)N(C)C(C)C)CC1 was Mtb glucose medium: 3.17%. Result for CCN(CC)CC(=O)Nc1ccc2c(c1)OCO2 was Mtb cholesterol medium: 17.87%. CN(C)C(CNC(=O)c1ccc(O)nc1)c1cccs1 (configuration not stated) gave Mtb cholesterol medium: -9.281%. For CCC(C#N)NC(=O)c1cccc(CN2CCCC2)c1 (configuration not stated) the result was Mtb glucose medium: 27.91%. Result for CCNC(=O)CC1CCCCN1CCOC (configuration not stated) was Mtb cholesterol medium: 7.165%. With COc1ccnc(CSc2n[nH]c(=O)n2C)c1OC the screen gave Mtb glucose medium: -6.21%. Result for CC(C)[C@H](N)C(=O)N1CCOC2(CCOCC2)C1 was Mtb glucose medium: 2.558%.

NC(=O)C(Cc1ccccc1)NC(=O)c1ccccc1 (configuration not stated) gave Mtb cholesterol medium: -22.69%. c1coc(-c2ccncc2)c1 gave Mtb cholesterol medium: -10.24%. CN1C(=O)C[C@H](N)[C@H]1c1cccnc1 read Mtb cholesterol medium: 6.59%. For COc1cc(CCN)c(SC)cc1OC the result was Mtb glucose medium: 19.33%. For CN1N=C(C(=O)NCCCN(C)S(C)(=O)=O)CCC1=O the result was Mtb glucose medium: 3.131%. O=C(C1Cc2cc(Cl)ccc2O1)N1CCOCC1 (configuration not stated) gave Mtb glucose medium: 51.07%. CNC(=O)CC(C)N(C)C(=O)c1ccc2c(c1)CCC2 (configuration not stated) gave Mtb glucose medium: 21.92%. O=C(CSCc1ccncc1)NCc1c[nH]nn1 read Mtb cholesterol medium: 1.884%.

Result for Cn1ncc(Sc2nc3ncccn3n2)c(Br)c1=O was Mtb glucose medium: 10.65%. With CC(C)COCC(O)Cn1nnc(-c2ccco2)n1 (configuration not stated) the screen gave Mtb glucose medium: 51.54%. Result for CN(C)c1cc(CNC(=O)NC2CC2)ccn1 was Mtb glucose medium: 0.8495%. Result for CC(C)N1C(=O)CC(NC(=O)c2cc(Br)c[nH]2)C1=O (configuration not stated) was Mtb cholesterol medium: 6.684%. For O=C(Cn1cnnn1)Nc1ccc(SC(F)F)cc1 the result was Mtb cholesterol medium: 58.47%; Mtb glucose medium: 60.9%. Result for CCc1nc(C)c(C(=O)NCc2cn3c(n2)SCC3)o1 was Mtb cholesterol medium: 0.2681%. With COc1cccc(NC(=O)CCN2C(=O)CCC2=O)c1 the screen gave Mtb glucose medium: -4.727%. Cc1ccc(S(=O)(=O)N[C@@H]2CCOC[C@H]2O)s1 read Mtb glucose medium: 13.73%.

COC(C(=O)NCCn1cncn1)c1ccccc1 (configuration not stated) read Mtb cholesterol medium: 3.954%. CC(Cn1cncn1)Nc1ncccc1F (configuration not stated) gave Mtb cholesterol medium: -16.04%. NCc1nc(-c2cccc(C(F)(F)F)c2)no1 read Mtb cholesterol medium: 73.84%; Mtb glucose medium: 65.7%. CC(=O)Nc1cnn(CC2CCCO2)c1 (configuration not stated) read Mtb cholesterol medium: -15.69%.

For reference, 3 entries once more:

Compound,Mtb cholesterol medium,Mtb glucose medium
CC(=O)N1CCCN(S(=O)(=O)N(C)C(C)C)CC1,-,3.17
CN1N=C(C(=O)NCCCN(C)S(C)(=O)=O)CCC1=O,-,3.131
CN(C)c1cc(CNC(=O)NC2CC2)ccn1,-,0.8495